Measurements reported in PMC1949145, “Kinetic Analysis of Yersinia pestis DNA Adenine Methyltransferase Activity Using a Hemimethylated Molecular Break Light Oligonucleotide” (2007).

What was measured:
[1] = target: T1, Y. pestis Dam (His6-tagged) (Yersinia pestis, UniProt A0AAP0YVJ7); assay: continuous DpnI-coupled break light fluorescence assay; replot of apparent Km; conditions: read-out: Y. pestis; competitive analysis vs AdoMet (20-200 µM); 33 nM hemimethylated oligonucleotide 1, 1 nM Dam, Mg acetate, Tris-acetate pH 7.9 buffer, 37 °C
[2] = target: T1, Y. pestis Dam (His6-tagged); assay: continuous DpnI-coupled break light fluorescence assay; hyperbolic fit; conditions: read-out: Y. pestis; 33 nM hemimethylated oligonucleotide 1, 1.0 nM Dam, 2.5-200 µM AdoMet, Mg acetate, Tris-acetate pH 7.9 buffer, 37 °C

Compound | pKi [1] | Km [2] [µM]
Nc1ncnc2c1ncn2[C@@H]1O[C@H](CSCC[C@H](N)C(=O)O)[C@@H](O)[C@H]1O | 5.16 | 
C[S+](CC[C@H](N)C(=O)O)C[C@H]1O[C@@H](n2cnc3c(N)ncnc32)[C@H](O)[C@@H]1O (some centres unmarked) |  | 11.3

pKi: −log10 of the molar value.
